Pooled drug test results. Numbers come from NIAID ChemDB, via PubChem.

All rows: whole-cell or culture tests; organism: Respiratory syncytial virus; read-out: EC50

Conditions beyond the fields shown may differ between rows. ECn: concentration that inhibits the pathogen or its effect by n%. Blank or dashed fields: not listed here.

compound	strain or isolate	cells	method	result
CC(=O)c1cc(NC(=O)c2ccccc2)c(=O)n2c1[nH]c1ccccc12	LONG	HEP-2	plaque count	>40 µg/mL
Nc1ncnc2c1ncn2[C@@H]1C[C@H](NC=O)[C@@H](O)[C@H]1O	-	HFF	-	>100 µg/mL
CCCN(CCC)S(=O)(=O)c1cccc(Nc2nc(Nc3cccc(S(=O)(=O)N(CCC)CCC)c3)nc(Nc3ccc(Nc4ccc(-c5ccc(Nc6ccc(Nc7nc(Nc8cccc(S(=O)(=O)N(CCC)CCC)c8)nc(Nc8cccc(S(=O)(=O)N(CCC)CCC)c8)n7)cc6S(=O)(=O)[O-])cc5S(=O)(=O)O)c(S(=O)(=O)O)c4)c(S(=O)(=O)[O-])c3)n2)c1	A2	HFF	ELISA	>25 µM
N#Cc1cc(NC(=O)c2ccccc2)c(=O)n2c1[nH]c1ccccc12	-	HEP-2	plaque count	0.12 µg/mL
O=C(Nc1ccc(NC(=S)Nc2cc(C(F)(F)F)cc(C(F)(F)F)c2)cc1)c1ccco1	-	HFF	-	>10 µg/mL
CCCN(CCC)C(=O)c1cccc(Nc2nc(Nc3cccc(C(=O)N(CCC)CCC)c3)nc(Nc3ccc(Nc4ccc(-c5ccc(Nc6ccc(Nc7nc(Nc8cccc(C(=O)N(CCC)CCC)c8)nc(Nc8cccc(C(=O)N(CCC)CCC)c8)n7)cc6S(=O)(=O)[O-])cc5S(=O)(=O)O)c(S(=O)(=O)O)c4)c(S(=O)(=O)[O-])c3)n2)c1	A2	HFF	ELISA	>25 µM
O=C(/C=C/c1ccc(O)c(O)c1)O[C@H]1[C@H](O)C[C@](O)(C(=O)O)C[C@H]1OC(=O)/C=C/c1ccc(O)c(O)c1	-	HEP-2	cytopathic effect	0.5 µg/mL
O=C(Nc1ccc(C(=O)N2CCc3cc(C(=O)N4CCOCC4)sc3-c3ccccc32)cc1)c1ccccc1-c1ccccc1	LONG	HeLa	plaque count	4.3 µM
O=C(/C=C/c1ccc(O)c(O)c1)O[C@@H]1CC(O)(C(=O)O)C[C@@H](OC(=O)/C=C/c2ccc(O)c(O)c2)C1O	LONG	HEP-2	cytopathic effect	0.068 µg/mL
O=C(O)c1cc2c(s1)-c1ccccc1N(C(=O)c1ccc(NC(=O)c3ccccc3-c3ccccc3)cc1)CC2	LONG	HeLa	plaque count	>25 µM
O=C(Nc1ccc(NC(=S)Nc2cc(C(F)(F)F)cc(C(F)(F)F)c2)cc1)c1cscn1	-	HFF	-	>10 µg/mL
CCOC(=O)c1cc(C#N)c2[nH]c3ccccc3n2c1=O	LONG	HEP-2	plaque count	15.3 µg/mL
O=C(Nc1ccc(NC(=S)Nc2ccccc2)cc1)c1ccco1	-	HFF	-	>10 µg/mL
N#Cc1cc(C#N)c2[nH]c3ccccc3n2c1=O	LONG	HEP-2	plaque count	1 µg/mL
O=C(Nc1ccc(NC(=S)Nc2ccc(F)c(Cl)c2)cc1)c1ccco1	-	HFF	-	>10 µg/mL
CC(NC(=S)Nc1ccc(NC(=O)c2ccccc2F)cc1C#N)c1ccc(F)cc1	A2	HFF	ELISA	>10 µg/mL
O=C(Nc1ccc(NC(=S)Nc2cc(C(F)(F)F)cc(C(F)(F)F)c2)cc1)c1cocn1	-	HFF	-	>10 µg/mL
NC(=O)CCN(CCC(N)=O)S(=O)(=O)c1cccc(Nc2nc(Nc3cccc(S(=O)(=O)N(CCC(N)=O)CCC(N)=O)c3)nc(Nc3ccc(-c4ccc(Nc5nc(Nc6cccc(S(=O)(=O)N(CCC(N)=O)CCC(N)=O)c6)nc(Nc6cccc(S(=O)(=O)N(CCC(N)=O)CCC(N)=O)c6)n5)cc4S(=O)(=O)O)c(S(=O)(=O)O)c3)n2)c1	47063/TYPE B	HEP-2	cytopathic effect	0.25 µg/mL

2 of the rows above, restated:

compound | strain or isolate | cells | method | result
CC(NC(=S)Nc1ccc(NC(=O)c2ccccc2F)cc1C#N)c1ccc(F)cc1 | A2 | HFF | ELISA | >10 µg/mL
O=C(Nc1ccc(NC(=S)Nc2ccc(F)c(Cl)c2)cc1)c1ccco1 | - | HFF | - | >10 µg/mL